Laboratory results reported in patent US20240270826A1.

How the values were obtained:
[1] = target: Human SARS-CoV-2 Beta (B.1.351) S (SARS-CoV-2 (Beta, B.1.351)); test: SPR, VHH over immobilised S
[2] = target: Human SARS-CoV-2 Alpha (B.1.1.7) S (SARS-CoV-2 (Alpha, B.1.1.7)); test: SPR, VHH over immobilised S
[3] = target: SARS-CoV-2 spike protein S on live virus, Beta variant (SARS-CoV-2 (Beta variant)) (UniProt P0DTC2); test: cell-based or functional assay
[4] = target: Human SARS-CoV-2 Beta S (SARS-CoV-2 (Beta variant)) (UniProt P0DTC2); test: flow cytometry SVNA: VHH-Fc inhibits S binding to ACE2 on Vero E6 cells
[5] = target: Human SARS-CoV-2 Alpha S (SARS-CoV-2 (Alpha variant)); test: as above

Substance | Kd [1] [nM] | koff [1] [s⁻¹] | kon [1] [M⁻¹ s⁻¹] | Kd [2] [nM] | koff [2] [s⁻¹] | kon [2] [M⁻¹ s⁻¹] | LVNA IC50 [3] [nM] | IC50 [4] [nM] | IC50 [5] [nM]
VHH-72 VHH | 124 | 0.0992 | 801000 | 96 | 0.101 | 1.05e+06 | – | – | –
VHH-72 VHH-Fc (Fc fusion) | – | – | – | – | – | – | 9.34 | 5.1 | 10.6
